These results are taken from publication PMC12072466, “Mechanisms of Viral DNA Replication of Human Papillomavirus: E2 Protein-Dependent Recruitment of E1 DNA Helicase to the Origin of DNA Replication” (International Journal of Molecular Sciences, 2025).

The target of this data set is T1, E2 (UniProt P03120).
T1 sequence (looked up): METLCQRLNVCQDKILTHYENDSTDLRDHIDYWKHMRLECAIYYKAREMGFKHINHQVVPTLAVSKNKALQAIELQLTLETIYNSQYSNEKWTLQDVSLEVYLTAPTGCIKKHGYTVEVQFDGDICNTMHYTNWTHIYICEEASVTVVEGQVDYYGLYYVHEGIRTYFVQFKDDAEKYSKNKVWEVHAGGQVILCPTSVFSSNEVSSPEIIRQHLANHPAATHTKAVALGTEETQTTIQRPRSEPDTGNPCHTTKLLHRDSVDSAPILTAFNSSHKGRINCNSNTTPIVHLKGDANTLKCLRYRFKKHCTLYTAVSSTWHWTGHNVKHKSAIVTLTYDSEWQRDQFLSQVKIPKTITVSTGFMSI
Nature of the data set: EMSA. To be noted: 4 mM Mg2+, 1.4 mM ATP, E2 2.8 nM, C1* complex; recombinant protein; residues 1-365; protein details: C-terminal 10xHis; label: 5' 32P. On the technique in general: Mobility shift assays separate free from complexed probe on a gel.

For at least one entry, the source does not settle the construct or the ends of the probe. At least one verdict was read from the data and is not stated in words by the source. Protein sequences can lack the tags named with them.

As to “GGCGGGACCGAAAACGGTTCAACCGAAAACGGTTATATATAAACCAGCCC (double strand) [Oligo II, E2 BS1+2 (50 bp)]”, the binding result is given as “binds”.
